Pooled drug test results. Numbers come from NIAID ChemDB, via PubChem.

Shared fields: host cell toxicity; cells: Huh7.5; measure: CC50

An empty or dashed field is not shown. Conditions beyond the fields shown may differ between rows. CCn is the concentration with n% toxicity to the cells.

smiles	method	value
COC(=O)C1=C(C(=O)OC)C2N(CCOCCN3c4ccccc4[C@]45CC(=O)N(Cc6ccccc6)C4=NC(C(=O)OC)=C(C(=O)OC)C35)C3C=CC=CC3[C@@]23CCC(=O)N(Cc2ccccc2)C3=N1	XTT	>100 µM
CC1=C(/C=C/C(C)=C/C=C/C(C)=C\C(=O)O)C(C)(C)CCC1	WST	>100 µM
C/C(=C\c1cn(C(=O)OCc2ccccc2)c2ccccc12)C(=O)Nc1ccc(C(C)(C)C)cc1	MTT	63.7 µM
O=c1c2cc(F)c(Br)cc2sn1-c1ccccc1	ATP	12 µM
CCOC(=O)c1c(C)n(C)c2ccc(CN(C)C)cc12	resazurin	>50 µM
COc1c(O)cc2oc3cc(O)c(CC=C(C)C)c(O)c3c(=O)c2c1CC=C(C)C	MTT	9.9 µM
COc1ccc2c(c1)c(/C=C(\C)C(=O)Nc1ccc(C(C)(C)C)cc1)cn2Cc1ccccc1	MTT	>100 µM
c1ncc(CNc2ccc3ncsc3c2)cn1	MTT	>200 µM
CN1C[C@H](O)[C@@H](O)[C@H](O)[C@H]1CO	MTT	>500 µM
C[C@H]1O[C@@H](O[C@H]2CC[C@@]3(C)[C@@H](CC[C@]4(C)[C@@H]3C=C[C@]35OC[C@@]6(CCC(C)(C)C[C@H]63)[C@H](O)C[C@]54C)[C@]2(C)CO)[C@H](O)[C@@H](O[C@@H]2O[C@H](CO)[C@@H](O)[C@H](O)[C@H]2O)[C@H]1O	XTT	23.38 µM
CN(C)CCCn1cnc2c(=O)oc3ccccc3c21	MTS	>224 µM
CCOC(=O)c1c(CS(=O)(=O)c2ccccc2)n(C)c2ccc(CN3CCOCC3)cc12	resazurin	>50 µM
Clc1ccc(Cn2c(CN3CCCC3)nc3ccccc32)cc1	MTT	34.6 µM
O=c1[nH]cnc2c1sc(=S)n2Cc1ccccc1	MTS	>224 µM
COC(=O)C1=C(C(=O)OC)C2N(CCCCCNC(=O)CCCCCNC(=O)CCCC3SCC4NC(=O)NC43)c3ccccc3[C@@]23CC(=O)N(Cc2ccccc2)C3=N1	XTT	>40 µM
CCC[C@H](NC(=O)[C@@H]1[C@H]2CCC[C@H]2CN1C(=O)[C@@H](NC(=O)[C@@H](NC(=O)c1cnccn1)C1CCCCC1)C(C)(C)C)C(=O)C(=O)NC1CC1	MTT	2920 µM
C/C(=C\c1cn(CCN(C)C)c2ccccc12)C(=O)Nc1ccc(C(C)(C)C)cc1	MTT	6.9 µM
CC1=C(/C=C/C(C)=C/C=C/C(C)=C/C(=O)O)C(C)(C)CCC1	WST	>100 µM
C/C(=C\c1cn(Cc2ccccc2)c2ccc(C#N)cc12)C(=O)Nc1ccc(C(C)(C)C)cc1	MTT	>100 µM
CN(C)CC1COc2ccc3nc4n(c3c2C1)CC(CN(C)C)CN4	-	86 µM
Cc1n[nH]c(=O)c2cc3c(C)n[nH]c(=O)c3cc12	MTS	>224 µM
Cc1ccc(C)c(OCCCCCCN2C[C@H](O)[C@@H](O)[C@H](O)[C@H]2CO)c1	MTT	208 µM
C=Cc1c2[nH]c(c1C)/C=C1\N=C(CC3=C4N=C(/C=c5\[nH]/c(c(C)c5CC)=C\2)C(C)=C4C(=O)[C@@H]3C(=O)OC)[C@@H](CCC(=O)O)[C@@H]1C	WST	10 µg/mL
O=c1[nH]cnc2c1cnn2Cc1ccccc1	MTS	96 µM

2 of the rows above, restated:

smiles | method | value
O=c1[nH]cnc2c1cnn2Cc1ccccc1 | MTS | 96 µM
C/C(=C\c1cn(Cc2ccccc2)c2ccc(C#N)cc12)C(=O)Nc1ccc(C(C)(C)C)cc1 | MTT | >100 µM